Test: xn = mol fraction of the nth substance listed

CCC[N+]1(C)CCCC1.O=S(=O)(F)[N-]S(=O)(=O)F + O=S(=O)(F)[N-]S(=O)(=O)F.[K+]
101 kPa
Settings | electrical conductivity [S/m] | viscosity [mPa·s]
258 K, x2 = 0.2 | 0.063 | –
273 K, x2 = 0 | 0.35 | 103
273 K, x2 = 0.1 | 0.25 | 156
278 K, x2 = 0 | 0.43 | 83.5
283 K, x2 = 0 | 0.52 | 68.5
288 K, x2 = 0.25 | 0.26 | 153
293 K, x2 = 0.15 | 0.48 | 80
303 K, x2 = 0.05 | 0.85 | 39.9
308 K, x2 = 0.15 | 0.78 | 46.5
313 K, x2 = 0.25 | 0.68 | 55.5
318 K, x2 = 0 | 1.4 | 22.9
323 K, x2 = 0 | 1.56 | 20.2
323 K, x2 = 0.05 | 1.42 | 22.5
333 K, x2 = 0 | 1.92 | 15.9
333 K, x2 = 0.2 | 1.33 | 25.1
343 K, x2 = 0.25 | 1.5 | 22.2
353 K, x2 = 0.1 | 2.42 | 12.7
353 K, x2 = 0.25 | 1.86 | 17.6
358 K, x2 = 0.05 | 2.77 | 10.3
358 K, x2 = 0.15 | 2.45 | 12.5
368 K, x2 = 0.15 | 2.9 | 10.4
378 K, x2 = 0.05 | 3.77 | 7.4
378 K, x2 = 0.1 | 3.6 | 8.1
383 K, x2 = 0.25 | 3.12 | 9.6
388 K, x2 = 0.25 | 3.36 | 8.8

O=S(=O)(F)[N-]S(=O)(=O)C(F)(F)F.[K+] + O=S(=O)(F)[N-]S(=O)(=O)F.[K+]
100 kPa, x2 = 0.55
Settings | electrical conductivity [S/m] | viscosity [mPa·s]
342.1 K | – | 1727
353.8 K | 0.23 | –
390.8 K | – | 86.2
402.7 K | – | 56.9
412.1 K | 2.67 | –

Source: the CheMixHub ionic liquid set
